Experimental data as given in patent publication US12459987B2, “Monoclonal antibodies for prevention and treatment of herpes simplex viral infections” (priority 2019, dated 2025).

B1: BMPC-23: mouse monoclonal antibody from bone marrow plasmacyte of ΔgD-2 vaccinated mice; IgH SEQ ID NO: 20, IgL SEQ ID NO: 22 (antibody, V domains shown)
VH: QVQLQQSGPELVKPGASVKLSCKASGYSFTTYDINWVKERPGQGLEWIGWIYPREGSTNYNEKFRGKATLTADTSSSTAYMELHSLTSEDSAVYFCATYGSSRYYTMDYWGQGTSVTVSSA
VL: DIVLTQSPTSLAVSLGQRATISCRASESVDNFGISFMNWFQQKPGQPPKLLIYAASNLGSGVPARFSGSGSGTDFSLNIHPMEDDDTAMYFCQQSKEVPLTFGAGTKLELKR
modifications: BMPC-23_IgH heavy chain; BMPC-23_IgL light chain
B2: BMPC-23 mouse IgG: BMPC-23 as mouse IgG, competitor against BMPC-23 human IgG (antibody, V domains shown)
VH: B1 VH
VL: B1 VL

Tests used:
[1] = target: glycoprotein B of HSV-1 (gB-1) (Human herpesvirus 1); assay: Luminex multiplex assay, binding to gB-1
[2] = target: gB-1 (Human herpesvirus 1); assay: Luminex competition: inhibition of binding of BMPC-23 human IgG to gB-1; set-up: species or system HSV-1
[3] = target: human herpesvirus glycoprotein B (gB) (Human herpesvirus 2); assay: Immunoprecipitation-Mass Spectrometry (IP-MS) target identification; assay type: binding
HSV-2 = assay: Passive transfer in vivo protection assay, lethal HSV-2 challenge; set-up: species or system mice
[4] = tested on: HSV-2 G infected cell lysates; assay: ELISA binding of recombinant antibodies to HSV-2 G infected cell lysates; set-up: species or system HSV-2 G strain

| Molecule | Binding to gB-1 ([1]; Luminex multiplex assay, serially diluted antibodies) | Target antigens ([1]; Table 3 summary) | Competition with BMPC-23 ([2]; Table 3 summary) | Binding target identified by IP-MS [3] | Mice protected from lethal challenge (HSV-2; IgG2c version, overall results from 2 independent experiments, passive transfer) | in vivo protection (HSV-2; Table 3 summary) | Protection against lethal HSV-2 challenge (HSV-2; as IgG2c, passive transfer, overall survival, epithelial and neurological assays) | Relative avidity of binding to HSV-2 G lysates (rank order) ([4]; ELISA, order 32H6, 35H7, 22D10, 33B8) | Binding of recombinant antibodies to HSV-2 G lysates ([4]; ELISA, recombinant antibodies expressed in Expi293F cells) | Binding to HSV-lysate ([4]; Table 3 summary) | Inhibition of binding of BMPC-23 human IgG antibodies to gB-1 ([2]; competitor mouse IgG at 222 ng/ml, BMPC-23 human IgG 2 ng/ml, relative to control IgG H33Lγ1) [%] |
| --- | --- | --- | --- | --- | --- | --- | --- | --- | --- | --- | --- |
| B1 | substantial binding | gB | Strong | human herpesvirus glycoprotein B (gB) | 8/10 | Yes | significant protection; also recorded: provides protection | comparable to that of 19G7 | reacted with HSV-2 G lysate | Yes | – |
| B2 | – | – | – | – | – | – | – | – | – | – | > 99 |

“Also recorded” adds a separate entry of the source.
